In patent US20050037436A1, “Test systems and the use thereof for identifying and characterizing compounds” (priority 2000, published 2005):

Experiments:
[1] = target: HC110-R receptor with a C-terminal Myc/His tag (Haemonchus contortus); assay: cell-based or functional assay
[2] = target: HC110-R-GFP fusion protein (HC110-R with C-terminal EGFP tag) (Haemonchus contortus; Aequorea victoria) [GFP: P42212]; assay: cell-based or functional assay

“alpha-latrotoxin (from UniProt P23631 21-1199) (ligand)” was tested, and the Ca2+ influx on addition of 75 nM α-LTX (Ca2+ imaging, HEK-293 cells) [1] was 296 nM, the increase in [Ca2+]i 2 min after 25 nM α-LTX (Ca2+ imaging, HEK-293 cells) [1] was 130 nM and the first increase in [Ca2+]i at 120 nM α-LTX (Ca2+ imaging, HEK-293 cells) [2] was 135 nM. It also gave a second increase in [Ca2+]i at 120 nM α-LTX (Ca2+ imaging, HEK-293 cells) [2] of 50 nM.
